Results from article PMC3476531, “Synergy of Peptide and Sugar in O-GlcNAcase Substrate Recognition” (Chemistry & Biology, 2012).

Biological target: CpOGA (Clostridium perfringens, UniProt Q0TR53)
Test: CpOGA glycopeptide hydrolysis, substrate competition assay with 4MU-GlcNAc reporter
Settings: read-out: Michaelis constant (KM) of glycopeptide substrate for CpOGA; competition with 4MU-GlcNAc reporter substrate; 37°C, 50 mM citrate-phosphate buffer pH 7.4, 0.1 mg/ml BSA; triplicate; ± error of curve-fit

With `CC(=O)N[C@H]1[C@H](OC[C@H](NC(=O)[C@H](CC(=O)O)NC(=O)[C@@H](NC(C)=O)C(C)C)C(=O)N[C@H](C(=O)N2CCC[C@H]2C(=O)NCC(N)=O)[C@@H](C)O)O[C@H](CO)[C@@H](O)[C@@H]1O` the Km was 48 µM.
`CC(=O)N[C@H]1[C@H](OC[C@H](NC(=O)[C@H](Cc2ccc(O)cc2)NC(=O)[C@@H]2CCCN2C(=O)[C@@H](NC(C)=O)C(C)C)C(=O)N[C@@H](CO)C(=O)N[C@@H](C)C(=O)N[C@@H](CCC(N)=O)C(N)=O)O[C@H](CO)[C@@H](O)[C@@H]1O` gave a Km of 230 µM.

Structures were worked out from names or drawings and are uncertain.
